Test results as given in paper PMC11570497 (Nature Plants, 2024).

System: P69B–His
Experiment: Qcsp8 cleavage by purified P69B-His
Details: 0.5 μg P69B–His; 10 μM Qcsp8; n = 4

CC(C)[C@H](NC(=O)c1ccc(N=Nc2ccc(N(C)C)cc2)cc1)C(=O)N[C@@H](CCCCN)C(=O)N[C@@H](Cc1c[nH]c2ccccc12)C(=O)N[C@@H](Cc1ccccc1)C(=O)N[C@@H](CC(N)=O)C(=O)N[C@@H](CC(N)=O)C(=O)N[C@@H](C)C(=O)N[C@@H](CCCCN)C(=O)NCCNc1cccc2c(S(=O)(=O)O)cccc12
cleavage of Qcsp8 by purified P69B–His (fluorescence): not cleaved
